“And” between values parts separate entries of the source, which are not always exact repeats. Equal entries are not always repeated.
Key:
[1] = test system: HCV genotype 1b replicon cells (Huh-luc); test: Biological Example 2: antiviral combination studies with Compound 3 (MacSynergy II); conditions: in combination with Compound 3
[2] = test system: HCV genotype 1b replicon cells (Huh-luc); test: Biological Example 1: antiviral combination study (MacSynergy II); conditions: in combination with Compound 2

Molecule	Antagonism Volume [1] [nM^2]	Interaction [1]	Synergy Volume [1]	Antagonism Volume [2] [nM^2]	Interaction [2]
Fc1ccccc1-c1nc2ccn(Cc3ccc(-c4ccc(C(F)(F)F)cc4C(F)(F)F)nn3)cc-2n1 [Compound 1, 5-((6-(2,4-bis(trifluoromethyl)phenyl)pyridazin-3-yl)methyl)-2-(2-fluorophenyl)-5H-imidazo[4,5-c]pyridine]	4.22 ± 5.0	Additive	14.5 nM^2 and 14.5 ± 0.7 nM^2	0.07 ± 0.07	Additive (Additive if volumes are >−50 nM^2 and ≦50 nM^2)
NC(=O)c1ncn([C@@H]2O[C@H](CO)[C@@H](O)[C@H]2O)n1 [Ribavirin, 1-β-D-ribofuranosyl-1H-1,2,4-Triazole-3-carboxamide, reference compound]	1.6 ± 2.3	Moderate synergy (Moderate synergy if volumes are >50 and ≦100 nM^2)	54 ± 14.1 nM^2	–	–
IFN-α [reference compound]	0.15 ± 0.2	Minor synergy (Minor synergy if volumes are >25 and <50 nM^2)	32 nM^2 and 32 ± 4.2 nM^2	–	–

From patent US9452154B2, “Methods for treating HCV” (Gilead Sciences, Inc., priority 2010, dated 2016)
